The exact form of at least one protein or probe is not confirmed. For some assays here: Protein sequences can lack the tags named with them.
Assays:
[1] = molecular target: NS3h_1b (con1) (Hepatitis C virus genotype 1b (con1)) (UniProt Q9WMX2); assay: fluorescence polarization; details: 1.25 mM MgCl2, no ATP listed; 25 mM MOPS pH 6.5, 1.25 mM MgCl2, 5 nM Cy5-dT15 (Fig 3 legend: 100 nM Cy5), 0.05 mM DTT, 0.005 mg/mL BSA, 0.001% Tween20; recombinant protein; residues 1207-1657; protein details: C-terminal His6 (not removed); single-stranded DNA
NS3h_3a (wt) = molecular target: T1, NS3h_3a (wt) (UniProt Q81258); assay: fluorescence polarization; details: 1.25 mM MgCl2, no ATP listed; 25 mM MOPS pH 6.5, 1.25 mM MgCl2, 5 nM Cy5-dT15 (Fig 3 legend: 100 nM Cy5), 0.05 mM DTT, 0.005 mg/mL BSA, 0.001% Tween20; recombinant protein; protein details: C-terminal His6 (not removed); single-stranded DNA
T1 sequence (looked up, limits assumed): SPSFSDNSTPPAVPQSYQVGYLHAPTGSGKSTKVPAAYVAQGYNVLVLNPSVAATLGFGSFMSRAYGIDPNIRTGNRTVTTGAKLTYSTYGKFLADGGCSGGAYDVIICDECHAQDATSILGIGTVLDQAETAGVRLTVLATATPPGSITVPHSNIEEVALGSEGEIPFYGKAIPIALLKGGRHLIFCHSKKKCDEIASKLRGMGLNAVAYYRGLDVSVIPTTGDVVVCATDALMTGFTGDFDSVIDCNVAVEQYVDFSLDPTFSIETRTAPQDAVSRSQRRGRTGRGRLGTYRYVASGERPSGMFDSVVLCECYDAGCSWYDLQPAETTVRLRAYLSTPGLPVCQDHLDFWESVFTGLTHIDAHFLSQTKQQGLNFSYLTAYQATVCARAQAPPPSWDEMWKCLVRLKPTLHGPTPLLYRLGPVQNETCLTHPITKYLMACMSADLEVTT

TTTTTTTTTTTTTTT [Cy5-dT15]
Kd [1]: 5.2 nM | Kd (NS3h_3a (wt)): 2.5 nM

— publication PMC4684341
